Compound potency records, mixed from different reports. Data source: NIAID ChemDB in PubChem.

Common to all: growth or infection tests; organism: Mycobacterium tuberculosis

MIC bound comes from a single tested concentration. Blank or dashed fields: not listed here. Percent inhibition refers to the dose given; in toxicity tests it is the harm to the cells. ECn is the concentration giving n% inhibition of infection, replication or growth. Conditions beyond the fields shown may differ between rows. MIC50, MIC90 and the like: level of inhibition, or share of isolates inhibited.

compound	endpoint	cells	read by	strain	dose	value
CCCCCCCCO[C@H]1O[C@H](CO[C@@H]2[C@@H](OCCCCCCCC)O[C@H](CO)[C@H]2N)[C@@H](O[C@@H]2O[C@H](O)[C@@H](N)[C@@H]2O)[C@@H]1O	EC50	-	-	H37Rv	-	>6.25 µg/mL
Oc1cc2c(cc1O)C1c3ccc(O)c(O)c3OCC1(O)C2	MIC bound	-	BACTEC	H37Rv	-	>128 µg/mL
CCCCCCc1ccc(NC(=O)c2cc(Br)ccc2O)cc1	MIC	-	-	My 331/88	-	8 µM
CCCCCCCCO[C@H]1O[C@H](CO[C@H]2O[C@H](CO)[C@@H](OC)[C@@H]2O)[C@@H](O)[C@@H]1O	inhibition	-	-	H37Rv	6.25 µg/mL	8%
CC(=O)c1cc(C(C)=O)c(CC(=O)C(=O)Nc2cccc(C)c2C)nc1CC(=O)C(=O)Nc1cccc(C)c1C	inhibition	-	BACTEC	H37Rv	12.5 µg/mL	11%
CN(C)c1cc2nc(C3CCCCC3)[nH]c2cc1NC(=O)c1ccc(OC(F)(F)F)cc1F	MIC	-	resazurin	H37Rv	-	0.31 µg/mL
C=CCS/C(N)=N/NC(=O)c1ccc(C)cc1	MIC	-	-	H37Rv	-	>100 µg/mL
O=C(N/N=C/c1ccc(Cl)cc1)Nc1ccc2c(c1)C(=O)C(=O)N2CN1CCCC1	MIC	-	resazurin	MDR	-	>50 µg/mL
C/C=C(/C)C(=O)OC1CC(C)(C)CC2C3=CCC4C5(C)CC[C@H](O)C(C)(C)C5CC[C@@]4(C)[C@]3(C)CC[C@@]12C(=O)O	MIC	-	-	H37Rv (isoniazid-resistant)	-	50 µg/mL
CCC(=O)c1ccc(NC(=S)NC)cc1	MIC	-	-	H37Rv	-	10 µg/mL
CC(C)(C)c1ccc(NC(=O)c2cc(Cl)ccc2O)cc1	MIC	-	-	My 331/88	-	8 µM
C/C(CO)=N\Nc1nc2ccccc2s1	MIC	-	resazurin	ATCC 27294	-	1.6 µg/mL
NC(=S)c1cc(SCc2ccc([N+](=O)[O-])cc2)ccn1	MIC	-	-	CNCTC MY331/88	-	3.98 µM
C/C(=N\NC(=O)Cn1nc(N2CCN(c3ccccc3)CC2)ccc1=O)c1ccccc1	MIC	-	agar	H37Rv	-	20 µg/mL
NC(=S)NNC(=O)c1ccc([N+](=O)[O-])cc1	MIC	-	-	H37Rv	-	>100 µg/mL
CO[C@H]1/C=C/O[C@@]2(C)Oc3c(C)c(O)c4c(=O)c(c5oc6cc(N7CCN(C(C)C)CC7)cc(=O)c6nc5c4c3=C2O)NC(=O)/C(C)=C\C=C\[C@H](C)[C@H](O)[C@@H](C)[C@@H](O)[C@@H](C)[C@H](OC(C)=O)[C@@H]1C	MBC	-	-	2219 (rifampin-resistant)	-	0.8 µg/mL
O=C(O)[C@@]1(CCCCCCOc2ccc(Cl)cc2)CO1	MIC	-	visual reading	H37Rv	-	>250 µM
CS/C(N)=N/NC(=O)c1ccccc1	MIC	-	-	H37Rv	-	>100 µg/mL
N#Cc1cc(SCc2cc([N+](=O)[O-])cc([N+](=O)[O-])c2)ccn1	MIC	-	-	CNCTC MY331/88	-	15.85 µM
C/C(=N\NC(=O)Cn1nc(N2CCN(c3ccc(Cl)cc3)CC2)ccc1=O)c1ccc(Br)cc1	MIC	-	agar	H37Rv	-	40 µg/mL
NC(=O)c1c([N+](=O)[O-])ncn1[C@H]1C[C@H](O)[C@@H](CO)O1	inhibition	-	resazurin	H37Rv	6.25 µg/mL	-5%
CCCCn1c(C)c2c(=O)[nH]n(C)c(=O)c2c1C	EC50	-	-	H37Rv	-	>12.5 µg/mL
CCCCCCCCO[C@H]1O[C@H](CO)[C@@H](O[C@H]2O[C@H](CO)[C@@H](N)[C@@H]2O)[C@@H]1O	EC50	-	-	H37Rv	-	>6.25 µg/mL
N#Cc1cc(SCc2ccc(F)cc2)ccn1	MIC	-	-	CNCTC MY331/88	-	61.66 µM
CCCCCCCCO[C@H]1O[C@H](CO[C@H]2O[C@H](CO)[C@@H](N=[N+]=[N-])[C@@H]2O)[C@@H](O)[C@@H]1O	EC50	-	-	H37Rv	-	>6.25 µg/mL
NNC(=O)c1ccncc1	MIC	-	-	H37RV (INH-R)	-	30 µg/mL
CCSN(SCC)C(=S)c1ncnc(NC2CC2)c1[N+](=O)[O-]	MIC	-	-	-	-	20.8 µg/mL
CCCCCCCCCCCCCCCCCCOCC(COP(=O)(O)OCC[N+](C)(C)C)OC	inhibition	-	BACTEC	H37Rv	12.5 µg/mL	14%
NC(=S)c1cc(SCc2ccccc2)ccn1	MIC	-	-	CNCTC MY331/88	-	15.85 µM
O=C1C2=Cc3ccccc3OC2(O)Oc2ccc(O)cc21	inhibition	-	BACTEC	H37Rv	12.5 µg/mL	0%
NC(=S)c1cc(SCc2ccc(F)cc2)ccn1	MIC	-	-	CNCTC MY331/88	-	7.94 µM
CCCCCCCSc1cc(C(N)=S)cc(SCCCCCC)n1	MIC	-	-	H37Rv	-	60 µM
NC(=S)c1cc(SCc2cccc(F)c2)ccn1	MIC	-	-	CNCTC MY331/88	-	7.94 µM
CNC(=S)Nc1ccc(N=Nc2ccccc2)cc1	MIC	-	-	H37Rv	-	10 µg/mL
CC1COB(c2ccccc2)OCC(C)N1CNC(=O)C1=C(O)C2(O)C(O)=C3C(=O)C4C(O)=CC=CC4C(C)(O)C3CC2C(N(C)C)C1=O	MIC bound	-	BACTEC	H37Rv	-	>12.5 µg/mL
CNC(=S)Nc1ccc(C(C)=O)cc1	MIC	-	-	H37Rv	-	2.5 µg/mL
COc1c(-c2ccccc2)oc2c(ccc3occc32)c1=O	MIC	-	-	H37Ra	-	>100 µg/mL
NC(=S)c1cc(SCc2ccc(Cl)cc2)ccn1	MIC	-	-	CNCTC MY331/88	-	7.94 µM
O=C(O)c1cn(C2CC2)c2c(Cl)c(N3C[C@@H]4CCCN[C@@H]4C3)c(F)cc2c1=O	MIC90	-	-	82 strains	-	0.06 µg/mL
NC[C@H]1O[C@H](O[C@@H]2[C@H](O)[C@@H](O[C@H]3O[C@H](CO)[C@@H](O)[C@H](N)[C@H]3O)[C@H](N)C[C@@H]2N)[C@H](O)[C@@H](O)[C@@H]1O	MIC	-	resazurin	H37Ra	-	2.5 µg/mL
CO[C@H]1/C=C/O[C@@]2(C)Oc3c(C)c(O)c4c(O)c(c(/C=N/N5CCN(C/C=C/c6ccccc6)CC5)c(O)c4c3C2=O)NC(=O)/C(C)=C\C=C\[C@H](C)[C@H](O)[C@@H](C)[C@@H](O)[C@@H](C)[C@H](OC(C)=O)[C@@H]1C	MIC	-	-	2983 (rifampin-sensitive)	-	0.05 µg/mL
CC(=O)Nc1ccc(/C=N/NC(N)=S)cc1	MIC	-	-	131	-	0.08 µg/mL
N=C1N(/N=C/c2ccccn2)C(=Nc2ccccc2)C(=S)N1c1ccccc1	MIC	VERO	-	H37Rv	-	12.5 µg/mL
Cn1nnc(-c2ccc(-c3ccc(N4C[C@H](CO)OC4=O)cc3F)cn2)n1	MIC50	-	-	25 isolates (isoniazid rifampin-resistant)	-	0.25 µg/mL
CS/C(N)=N/NC(=O)c1ccc(F)cc1	MIC	-	-	H37Rv	-	>100 µg/mL
CC1COc2c(N3CCN(C)CC3)c(F)cc3c(=O)c(C(=O)O)cn1c23	MIC50	-	-	188 strains	-	0.25 µg/mL
Cc1nc([N+](=O)[O-])c2n1CC(CCl)O2	MIC	-	-	H37Rv	-	>10 µg/mL
Cc1c2c(OCC(O)CN3CCN(c4ccccc4)CC3)nn(C)c(=O)c2c(C)n1-c1ccccc1	EC50	-	-	H37Rv	-	>12.5 µg/mL
Cc1ccc(S(=O)(=O)C(=S)N(C)N(C)C)cc1	MIC	-	-	PZA-R	-	12.8 µg/mL
CCCCCc1ccc(NC(=O)c2cc(Cl)ccc2O)cc1	MIC	-	-	My 331/88	-	16 µM
CCCCNC(=S)S	MIC	-	-	PAS-R	-	>12.5 µg/mL
CS/C(N)=N/NC(=O)c1ccc(Cl)cc1Cl	MIC	-	-	H37Rv	-	>100 µg/mL
O=c1cc(N2CCN(c3cc(=O)n4ccccc4n3)CC2)oc2ccccc12	inhibition	-	resazurin	H37Rv	6.25 µg/mL	-4%
CN(C)C(=N)N=C(N)N	MIC	-	visual reading	H37Rv	-	>15000 µM
CN(C)CN1C(=O)C(=O)c2cc(NC(=O)N/N=C/c3ccc(Cl)cc3)ccc21	MIC	-	resazurin	MDR	-	>50 µg/mL
NC(=O)c1cnccn1	MIC	-	-	Isolate 97-1069	-	900 µg/mL
Cc1ccc2c(c1)OC1c3ccc(O)cc3OCC21	MIC	-	-	H37Ra	-	100 µg/mL
CS/C(N)=N/NC(=O)c1ccc(C)cc1	MIC	-	-	H37Rv	-	>100 µg/mL
CCCCCCCCCCCCCCCCOc1nn(C)c(=O)c2c(C)n(CCCC)c(C)c12	inhibition	-	-	H37Rv	12.5 µg/mL	77%
O=Cc1ccccc1NC1=CC(=O)N(c2ccccc2)C1=O	MIC	-	BACTEC	H37Rv	-	≥12.8 µg/mL
NC(=O)c1cccn2cc(-c3cccc(-c4cncc(OC[C@H]5CCCO5)c4)c3)nc12	EC50	-	resazurin	H37Rv (ATCC 27294)	-	0.78 µM
CN1CCN(CN2C(=O)C(=O)c3cc(NC(=O)N/N=C/c4ccc(Cl)cc4)ccc32)CC1	MIC	-	resazurin	MDR	-	12.5 µg/mL
O=C1N(Cl)C2(c3ccccc3)N(Cl)C(=O)N(Cl)C2(c2ccccc2)N1Cl	inhibition	-	resazurin	H37Rv	6.25 µg/mL	-21%
CCCCSc1cc(C(N)=S)cc(Br)n1	MIC	-	-	H37Rv	-	125 µM
O=C(N/N=C/c1ccc(Cl)cc1)Nc1ccc2c(c1)C(=O)C(=O)N2CN1CCN(c2ccccc2)CC1	MIC	-	resazurin	MDR	-	6.25 µg/mL
CN(C)c1ccc(/C=C/C(=O)c2ccc(Nc3ccnc4cc(Cl)ccc34)cc2)cc1	MIC bound	-	BACTEC	H37Rv	-	>12.5 µg/mL
C=C(C)CC[C@H]1CN(c2ccn(N3CCOCC3)c2)C(=O)O1	MIC50	-	-	ATCC 35828 (pyrazinamide-resistant)	-	>100 µM
C=CC1C(C[C@@H]2c3cc(O)c(O)cc3CCN2C(C)=O)C(C(=O)OC)=CO[C@H]1OC1OC(CO)C(O)C(O)C1O	MIC bound	-	BACTEC	H37Rv	-	>12.5 µg/mL
CCCCCCSc1cc(C(N)=S)cc(Cl)n1	MIC	-	-	H37Rv	-	60 µM
COc1cc2c(cc1-c1cc(=O)c3ccc4occc4c3o1)OCO2	MIC	-	-	H37Ra	-	>100 µg/mL
COc1ccc(C2=CC(c3ccc4c(c3)OCO4)c3c(c4ccccc4oc3=O)O2)cc1OC	MIC bound	-	BACTEC	H37Rv	-	>12.5 µg/mL
CC1Cn2cc([N+](=O)[O-])nc2O1	MIC	-	-	H37Rv	-	5 µg/mL
C/C(=N\NC(=O)Cn1nc(N2CCN(c3ccccc3)CC2)ccc1=O)c1ccc(Cl)cc1	MIC	-	agar	H37Rv	-	40 µg/mL
Cn1c([N+](=O)[O-])cnc1/C=N/N1CCN(/N=C/c2ncc([N+](=O)[O-])n2C)CC1	MIC bound	-	resazurin	H37Rv	-	>6.25 µg/mL
N#Cc1cc(SCc2ccc([N+](=O)[O-])cc2[N+](=O)[O-])ccn1	MIC	-	-	CNCTC MY331/88	-	61.66 µM
CN1c2ccccc2C(=O)NC1c1ccc([N+](=O)[O-])s1	inhibition	-	resazurin	H37Rv	6.25 µg/mL	5%
CCCCc1ccc(NC(=O)c2ccc(Cl)cc2O)cc1	MIC	-	-	My 331/88	-	4 µM
CC(=O)OC[C@@]12C[C@@H](O)C(C)=CC1O[C@H]1[C@@H](O)[C@H](OC(C)=O)[C@]2(C)[C@@]12CO2	MIC bound	-	BACTEC	H37Rv	-	>12.5 µg/mL
C/C(=N\NC(=O)Cn1nc(N2CCN(c3ccc(Cl)cc3)CC2)ccc1=O)c1ccc(Cl)cc1	MIC	-	agar	H37Rv	-	40 µg/mL
Cc1c2c(OCC(O)CN3CCc4ccccc4C3)nn(C)c(=O)c2c(C)n1-c1ccccc1	EC50	-	-	H37Rv	-	>12.5 µg/mL
COc1ccc2c(C)cc(N/N=C/c3cccc(C)n3)nc2c1	MIC	VERO	BACTEC	H37Rv	-	12.5 µg/mL
CCCCCCCCc1ccc(NC(=O)c2cc(Br)ccc2O)cc1	MIC	-	-	My 331/88	-	2 µM
C[n+]1cccc(C(=O)NO)c1.[I-]	inhibition	-	BACTEC	H37Rv	12.5 µg/mL	5%
C[C@@H]1CN(c2c(F)c(N)c3c(=O)c(C(=O)O)cn(C4CC4)c3c2F)C[C@H](C)N1	Median MIC50	-	-	139 strains	-	0.1 µg/mL

Repeating the final 6 entries:

| compound | endpoint | cells | read by | strain | dose | value |
|---|---|---|---|---|---|---|
| C/C(=N\NC(=O)Cn1nc(N2CCN(c3ccc(Cl)cc3)CC2)ccc1=O)c1ccc(Cl)cc1 | MIC | - | agar | H37Rv | - | 40 µg/mL |
| Cc1c2c(OCC(O)CN3CCc4ccccc4C3)nn(C)c(=O)c2c(C)n1-c1ccccc1 | EC50 | - | - | H37Rv | - | >12.5 µg/mL |
| COc1ccc2c(C)cc(N/N=C/c3cccc(C)n3)nc2c1 | MIC | VERO | BACTEC | H37Rv | - | 12.5 µg/mL |
| CCCCCCCCc1ccc(NC(=O)c2cc(Br)ccc2O)cc1 | MIC | - | - | My 331/88 | - | 2 µM |
| C[n+]1cccc(C(=O)NO)c1.[I-] | inhibition | - | BACTEC | H37Rv | 12.5 µg/mL | 5% |
| C[C@@H]1CN(c2c(F)c(N)c3c(=O)c(C(=O)O)cn(C4CC4)c3c2F)C[C@H](C)N1 | Median MIC50 | - | - | 139 strains | - | 0.1 µg/mL |